Measurements reported in PubChem BioAssay AID1259414 (Drosophila RNAi Screening Center, 2018)
The screen tested about 24,000 reagents; this is an unselected part of those with a known target gene and a result. Over the whole deposit, about 1,210 (5%) are marked active. 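Inactive calls also include excluded dsRNAs with several or no targets, genes unexpressed in JW18, and well A1, regardless of score.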 Entries without a mark were called inactive. Names joined by + are all predicted targets of the reagent.

Test: 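Host factors increasing or decreasing Wolbachia levels in cultured fly cells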 (primary screen)
Cells: Drosophila JW18 cells infected with Wolbachia
Reagents: long dsRNA against Drosophila genes, 0.25 µg dsRNA per well of a 384-well plate
Time to read-out: 5 days
Treatment: cells persistently infected with Wolbachia before knock-down; no added drug
Measured: 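Automated imaging of bacterial rRNA staining divided by host cell count, reported as plate-normalised robust z-score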
Scale: Wolbachia per cell robust z: higher = more Wolbachia per host cell than the plate typical
Hit rule: 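Active if absolute robust z reaches 1.5 in two or more of three replicates, leaving out multi- or no-target dsRNAs, genes unexpressed in JW18 and A1 wells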

lili (lilipod) [DRSC14143] → Wolbachia per cell robust z, rep 1: 0.301; Wolbachia per cell robust z, rep 2: 0.474; Wolbachia per cell robust z, rep 3: -0.0768
lili (lilipod) [DRSC29667] → Wolbachia per cell robust z, rep 1: 0.766; Wolbachia per cell robust z, rep 2: 0.27; Wolbachia per cell robust z, rep 3: 0.954
aft (adrift) [DRSC07576] → Wolbachia per cell robust z, rep 1: 0.947; Wolbachia per cell robust z, rep 2: -0.881; Wolbachia per cell robust z, rep 3: 0.00316
az2 [DRSC07580] → Wolbachia per cell robust z, rep 1: 0.609; Wolbachia per cell robust z, rep 2: -0.165; Wolbachia per cell robust z, rep 3: -1.06
CG7488 [DRSC16250] → Wolbachia per cell robust z, rep 1: 1.18; Wolbachia per cell robust z, rep 2: -0.409; Wolbachia per cell robust z, rep 3: 0.189
CG3104 [DRSC25569] → Wolbachia per cell robust z, rep 1: -0.947; Wolbachia per cell robust z, rep 2: -0.84; Wolbachia per cell robust z, rep 3: -1.49
CG31809 + CG31810 [DRSC25411] → Wolbachia per cell robust z, rep 1: -1.53; Wolbachia per cell robust z, rep 2: -0.0467; Wolbachia per cell robust z, rep 3: 0.0829
l(2)k05911 (lethal (2) k05911) [DRSC02523] → Wolbachia per cell robust z, rep 1: 0.153; Wolbachia per cell robust z, rep 2: 0.81; Wolbachia per cell robust z, rep 3: 0.262
SH3PX1 (SH3 and PX domain containing 1) [DRSC11139] → Wolbachia per cell robust z, rep 1: -0.0894; Wolbachia per cell robust z, rep 2: 0.783; Wolbachia per cell robust z, rep 3: -0.682
S6k (Ribosomal protein S6 kinase) [DRSC11276] → Wolbachia per cell robust z, rep 1: -0.679; Wolbachia per cell robust z, rep 2: 1.14; Wolbachia per cell robust z, rep 3: 0.016
S6k (Ribosomal protein S6 kinase) [DRSC40754] → Wolbachia per cell robust z, rep 1: -1.12; Wolbachia per cell robust z, rep 2: -1.09; Wolbachia per cell robust z, rep 3: 1.19
CG13081 [DRSC02185] → Wolbachia per cell robust z, rep 1: 0.666; Wolbachia per cell robust z, rep 2: 0.367; Wolbachia per cell robust z, rep 3: 1.39
stnB + stnA [DRSC20969] → Wolbachia per cell robust z, rep 1: -0.379; Wolbachia per cell robust z, rep 2: -0.249; Wolbachia per cell robust z, rep 3: -0.307
stnB + stnA [DRSC21112] → Wolbachia per cell robust z, rep 1: 1.01; Wolbachia per cell robust z, rep 2: -0.539; Wolbachia per cell robust z, rep 3: 0.915
CG33096 [DRSC14440] → Wolbachia per cell robust z, rep 1: 0.414; Wolbachia per cell robust z, rep 2: -0.0187; Wolbachia per cell robust z, rep 3: -2.42
CG33096 [DRSC25968] → Wolbachia per cell robust z, rep 1: 0.338; Wolbachia per cell robust z, rep 2: 0.481; Wolbachia per cell robust z, rep 3: 0.338
Rpn7 (Regulatory particle non-ATPase 7) [DRSC16841] → Wolbachia per cell robust z, rep 1: 3.22 (active); Wolbachia per cell robust z, rep 2: 3.7; Wolbachia per cell robust z, rep 3: 2.02
Rpn7 (Regulatory particle non-ATPase 7) [DRSC25951] → Wolbachia per cell robust z, rep 1: 1.36; Wolbachia per cell robust z, rep 2: 1.62; Wolbachia per cell robust z, rep 3: 1.08
Orcokinin [DRSC04202] → Wolbachia per cell robust z, rep 1: 0.15; Wolbachia per cell robust z, rep 2: -0.033; Wolbachia per cell robust z, rep 3: 0.306
gammaSnap2 (gamma Soluble NSF attachment protein 2) [DRSC15992] → Wolbachia per cell robust z, rep 1: 0.255; Wolbachia per cell robust z, rep 2: -1.11; Wolbachia per cell robust z, rep 3: 1.02
rpk (ripped pocket) [DRSC12386] → Wolbachia per cell robust z, rep 1: -0.775; Wolbachia per cell robust z, rep 2: 0.795; Wolbachia per cell robust z, rep 3: -0.54
rpk (ripped pocket) [DRSC21656] → Wolbachia per cell robust z, rep 1: -0.248; Wolbachia per cell robust z, rep 2: -1.02; Wolbachia per cell robust z, rep 3: -0.155
geminin [DRSC04984] → Wolbachia per cell robust z, rep 1: 2.45 (active); Wolbachia per cell robust z, rep 2: -3.07; Wolbachia per cell robust z, rep 3: 3.33
geminin [DRSC29794] → Wolbachia per cell robust z, rep 1: 3.56 (active); Wolbachia per cell robust z, rep 2: 3.22; Wolbachia per cell robust z, rep 3: 4.5
